# Results reported in patent US7011824B2, “Methods of treating manure” (priority 1998, dated 2006).
# Test: Effect of aluminum chloride and alum on phosphorus solubility and pH of swine manure slurry (Example 1)
# Settings: 0-10 ml of 10% solution per 100 ml slurry; incubated 3 days in the dark at 25° C.; FIG. 2
structure (smiles),measurement,value
[Cl][Al]([Cl])[Cl] [aluminum chloride],"soluble phosphorus (soluble reactive phosphorus, SRP)",decreased the amount of soluble phosphorus
